Results of unrelated studies side by side (data: NIAID ChemDB).

All rows: cytotoxicity tests; cell line: HEP-2; endpoint: CC50

An empty or dashed field is not shown. CCn: concentration that lowers growth or viability of the cells by n%. Conditions beyond the fields shown may differ between rows.

smiles | method | value
O=C(NC1N=C(c2ccccc2)c2ccccc2NC1=O)c1c(F)cccc1F |  | 8.7 µM
COc1cc2c(cc1O)CCN1CC=C3C=C[C@H](OC)C[C@]321 | MTT | 19.9 µg/mL
CCCSc1nsc(-c2ccccc2)c1C#N |  | 200 µg/mL
C/C=C1/[C@H](O[C@@H]2O[C@H](CO)[C@@H](O)[C@H](O)[C@H]2O)OC=C(C(=O)OC)[C@H]1CC(=O)OCCc1ccc(O)c(O)c1 |  | 562.5 µM
COc1cccc(C2(c3ccccc3)NC(NC(=O)c3cccs3)C(=O)Nc3ccccc32)c1 |  | 4 µM
NC(=O)c1nc(F)c[nH]c1=O |  | >1000 µg/mL
N#Cc1c(SCCO)nsc1-c1ccccc1 |  | 5 µg/mL
C=C(C)n1c(=O)n(Cc2nc3ccccc3n2CCC(=N)N=[N+]=[N-])c2ccccc21 |  | >294 µM
Nc1nccc2c1ncn2[C@@H]1C[C@H](CO)[C@@H](O)[C@H]1O |  | 750 µg/mL
O=C(NC1N=C(c2ccccc2)c2ccccc2NC1=O)c1ccccc1I |  | 8.3 µM
CCSc1nsc(-c2ccccc2)c1C#N |  | 100 µg/mL
O=C(O)c1cccc(Cn2c(=O)n(Cc3nc4ccccc4n3CCCn3cnnn3)c3ccccc32)c1 |  | >194 µM
O=C(Nc1ccc(OC(F)(F)F)cc1)NC1N=C(c2ccccc2)c2ccccc2NC1=O |  | 2 µM
N#Cc1c(N2CCCCC2)nsc1-c1ccccc1 |  | 25 µg/mL
CCCCNC(=O)NC1N=C(c2ccccc2)c2ccccc2NC1=O |  | 1.5 µM
CCC1[C@H](OC2O[C@H](CO)[C@@H](O)[C@H](O)[C@H]2O)OC=C(C(=O)O)[C@H]1CC(=O)OCCc1ccc(O)cc1 |  | 250 µM
N#Cc1c(N2CCCC2)nsc1-c1ccccc1 |  | 7 µg/mL
COc1ccc(-c2coc3cc(O[C@@H]4O[C@H](CO)[C@@H](O)[C@H](O)[C@H]4O)ccc3c2=O)cc1O |  | 177 µg/mL
C/C=C1\[C@H](OC2O[C@H](CO)[C@@H](O)[C@H](O)[C@H]2O)OC=C(C(=O)O)[C@H]1CC(=O)OCC(OCC)c1ccc(O)c(O)c1 |  | 250 µM
CC(=O)NC[C@H]1CN(c2ccc(N3CCOCC3)c(F)c2)C(=O)O1 |  | >100 µM
CCCSc1nsc(-c2ccccc2)c1C(=O)O |  | 500 µg/mL
C=C(C)n1c(=O)n(Cc2nc3ccccc3n2CCCC(=N)N=[N+]=[N-])c2ccccc21 |  | >0.33 µM
CCCSc1nsc(-c2ccccc2)c1C(N)=O |  | 300 µg/mL
CSc1ccc(C(=O)NC2N=C(c3ccccc3)c3ccccc3NC2=O)cc1 |  | 6.2 µM
N#Cc1c(N2CCOCC2)nsc1-c1ccccc1 |  | 1 µg/mL
[N-]=C=Nc1nncs1 |  | >1000 µg/mL
CCNC(=O)NC1N=C(c2ccccc2)c2ccccc2NC1=O |  | 2 µM
CN(C)c1nsc(-c2ccccc2)c1C#N |  | 15 µg/mL

For reference, 3 entries again:

O=C(NC1N=C(c2ccccc2)c2ccccc2NC1=O)c1c(F)cccc1F ; value: 8.7 µM
CC(=O)NC[C@H]1CN(c2ccc(N3CCOCC3)c(F)c2)C(=O)O1 ; value: >100 µM
C/C=C1/[C@H](O[C@@H]2O[C@H](CO)[C@@H](O)[C@H](O)[C@H]2O)OC=C(C(=O)OC)[C@H]1CC(=O)OCCc1ccc(O)c(O)c1 ; value: 562.5 µM